Measurements reported in article PMC8602850.

By UniProt entry, the sequences of proteins in these tests, tags left out. Residues count along the entry.
UniProt Q07021, 74-282, stated change not applied: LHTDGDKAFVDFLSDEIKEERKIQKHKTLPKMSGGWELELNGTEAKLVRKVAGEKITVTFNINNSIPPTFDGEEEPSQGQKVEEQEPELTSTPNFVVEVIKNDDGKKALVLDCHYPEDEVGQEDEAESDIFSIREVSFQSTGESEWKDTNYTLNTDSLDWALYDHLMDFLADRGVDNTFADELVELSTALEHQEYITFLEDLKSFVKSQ

Molecular target: gC1qR-ΔΔ, gC1qR deletion mutant that removed the flexible, negatively charged loops (UniProt Q07021)
Assay: SPR; gC1qR-WT or gC1qR-ΔΔ immobilised; two-fold dilution series of analyte injected; reference-corrected sensorgrams fit to kinetic models; apparent KD

SARS-CoV-2 spike S1 protein, recombinant (from UniProt P0DTC2 14-685) (domain or fragment)
Kd: 370 nM
